The data set has as its system T1, MRB1590(10-668) (Trypanosoma brucei).
T1 sequence (looked up, limits assumed): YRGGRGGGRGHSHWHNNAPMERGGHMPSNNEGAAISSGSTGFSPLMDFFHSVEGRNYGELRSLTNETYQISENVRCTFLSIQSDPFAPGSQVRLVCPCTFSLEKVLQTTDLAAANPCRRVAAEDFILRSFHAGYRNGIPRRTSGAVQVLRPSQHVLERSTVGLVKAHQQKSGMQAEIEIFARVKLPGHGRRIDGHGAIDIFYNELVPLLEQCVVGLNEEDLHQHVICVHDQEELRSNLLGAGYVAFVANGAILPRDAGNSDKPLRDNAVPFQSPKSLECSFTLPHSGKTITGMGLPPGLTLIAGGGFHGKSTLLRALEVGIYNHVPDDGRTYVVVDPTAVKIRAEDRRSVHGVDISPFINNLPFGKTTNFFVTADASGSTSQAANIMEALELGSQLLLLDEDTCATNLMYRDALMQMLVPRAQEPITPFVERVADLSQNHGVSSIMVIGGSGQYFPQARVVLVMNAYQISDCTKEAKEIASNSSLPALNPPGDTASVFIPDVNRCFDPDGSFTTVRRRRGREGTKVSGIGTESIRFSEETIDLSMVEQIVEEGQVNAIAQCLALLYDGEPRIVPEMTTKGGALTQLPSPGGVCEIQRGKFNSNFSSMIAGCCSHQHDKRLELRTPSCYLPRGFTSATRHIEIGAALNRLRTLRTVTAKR
The data set can be described thus: fluorescence polarization. The note with it: AMP-PNP (table header says ATP), Mg2+, FP: 20 mM Tris-HCl pH 7.5, 150 mM NaCl, 5% glycerol, 1 mM MgCl2, 2 mM ADP or AMP-PNP, 1 nM 3'-fluoresceinated RNA (heated to 99 C, slow cooled), 25 C, recombinant protein. In general terms: Polarisation of emitted light reports the rotation of a fluorescent probe.

For at least one entry, the source does not settle the construct or the ends of the probe. Where a protein sequence is shown, tags need not be part of it.

As usually defined, the Kd is the concentration at which binding is half-saturated. Regarding AAAAAAAAAAAAAAA [A15 RNA], the dissociation constant (Kd) (label: 3' fluorescein) amounted to 720 nM.

Consider “AGGCGGGCGGGCGACGGCGGU / ACCGCCGUCGCCCGCCCGCCU [dsGC-rich RNA]”, for which, for the setting “letters put together from the description”, the Kd amounted to 174 nM.

For “AGGCGGGCGGGCGACGGCGGU [GC-rich sequence RNA (A6 pause site, 21 mer)]”, the Kd (label: 3' fluorescein) was 72 nM. Regarding UUUUUUUUUUUUUUU [U15 RNA], the Kd (label: 3' fluorescein) is 471 nM.

The values are drawn from publication PMC4538832, “Structures of the T. brucei kRNA editing factor MRB1590 reveal unique RNA-binding pore motif contained within an ABC-ATPase fold” (Nucleic Acids Research, 2015).
